Results of unrelated studies side by side (data: NIAID ChemDB).

ICn: concentration for n% inhibition. Percent inhibition refers to the dose given; in toxicity tests it is the harm to the cells. An empty or dashed field is not shown. MIC bound comes from a single tested concentration. Conditions beyond the fields shown may differ between rows.

compound | test | organism | protein | method | measure | strain or isolate | tested at | value
COc1ccc(CC(=O)c2c(O)c3c(c(CC=C(C)C)c2OC)OC(C)(C)C=C3)cc1 | culture | Mycobacterium tuberculosis | - | BACTEC | MIC bound | H37Rv | - | >128 µg/mL
NC(Cc1cc(I)c(O)c(I)c1)C(=O)O | culture | Mycobacterium tuberculosis | - | - | MIC | H37Rv | - | 100 µg/mL
Cc1cccc(N2CCN(c3cncc(-c4ccoc4)n3)CC2)c1C | target | Cytomegalovirus | UL97 kinase | - | IC50 | - | - | <100 µM
NC(=O)c1n[nH]c([C@H]2C[C@H](O)[C@@H](CO)O2)n1 | culture | Mycobacterium tuberculosis | - | BACTEC | MIC bound | H37Rv | - | >12.5 µg/mL
O=C(c1ccccc1)C1C(c2ccccc2)N1Cc1ccccc1 | culture | Mycobacterium tuberculosis | - | - | MIC | H37Rv | - | >100 µg/mL
O=C1N2CCNc3ccccc3C(c3ccccc3)N1CC2 | culture | Mycobacterium tuberculosis | - | BACTEC | inhibition | H37Rv | 12.5 µg/mL | 22%
Fc1ccc(N2CCCCC2)c(NC(=S)c2ccncc2)c1 | host protein | - | CDK3/cyclin E | kinase activity | inhibition | - | 10 µM | 12%
CS(=O)(=O)c1cc(N)c2ncccc2c1 | culture | Mycobacterium tuberculosis | - | - | MIC | H37Rv | - | >100 µg/mL
CN1CC(=O)NC2C=CN(Cc3c(Cl)cccc3Cl)C=C2C1=O | culture | Mycobacterium tuberculosis | - | BACTEC | MIC bound | H37Rv | - | >12.5 µg/mL
OCCOCCOCCO | culture | Mycobacterium tuberculosis | - | - | MIC | H37Rv | - | >100 µg/mL
OCc1ccc(-c2cncc(N3CCN(c4ccccc4F)CC3)n2)cc1 | target | Cytomegalovirus | UL97 kinase | - | inhibition | - | 1 µM | <50%
OCc1cnc[nH]1 | culture | Mycobacterium tuberculosis | - | - | MIC | H37Rv | - | >100 µg/mL
COc1ccccc1N1CCN(c2cncc(-c3ccc4ccccc4c3)n2)CC1 | target | Cytomegalovirus | UL97 kinase | - | inhibition | - | 1 µM | <50%
CCOC([O-])=C([N+](=O)[O-])[N+](=O)[O-].[K+] | culture | Mycobacterium tuberculosis | - | - | MIC | H37Rv | - | 100 µg/mL
CCC[N+]1=C/c2ccccc2OC(=O)/C=C\1[O-] | culture | Mycobacterium tuberculosis | - | BACTEC | MIC | H37Rv | - | ≥12.5 µg/mL
CCOc1ccccc1-c1cncc(N2CCN(c3ccc(C(C)=O)cc3)CC2)n1 | target | Cytomegalovirus | UL97 kinase | - | inhibition | - | 10 µM | >15%
O=C(O)c1c2ccccc2nc2[nH]c(=O)[nH]c(=O)c12 | culture | Mycobacterium tuberculosis | - | BACTEC | MIC bound | H37Rv | - | >6.25 µg/mL
Cc1cccc(N2CCN(c3cncc(-c4cc5ccccc5s4)n3)CC2)c1C | target | Cytomegalovirus | UL97 kinase | - | inhibition | - | 10 µM | >15%
CS(=O)(=O)c1ccc(C(=O)SSC(=O)c2ccc(S(C)(=O)=O)cc2)cc1 | culture | Mycobacterium tuberculosis | - | - | MIC | H37Rv | - | >100 µg/mL
Cc1cn([C@H]2C[C@H](N=[N+]=[N-])[C@@H](COP(=O)(OCC(=O)c3ccccc3)OCC(=O)c3ccccc3)O2)c(=O)[nH]c1=O | culture | Mycobacterium tuberculosis | - | BACTEC | MIC bound | H37Rv | - | >12.5 µg/mL
COc1cccc(-c2cncc(N3CCN(c4cccc(Cl)c4)CC3)n2)c1 | target | Cytomegalovirus | UL97 kinase | - | IC50 | - | - | <10 µM

For reference, 2 entries again:

{"compound": "CCOC([O-])=C([N+](=O)[O-])[N+](=O)[O-].[K+]", "test": "culture", "organism": "Mycobacterium tuberculosis", "measure": "MIC", "strain or isolate": "H37Rv", "value": "100 µg/mL"}
{"compound": "CCOc1ccccc1-c1cncc(N2CCN(c3ccc(C(C)=O)cc3)CC2)n1", "test": "target", "organism": "Cytomegalovirus", "protein": "UL97 kinase", "measure": "inhibition", "tested at": "10 µM", "value": ">15%"}